Results of unrelated studies side by side (data: NIAID ChemDB).

All rows: target-level tests; species: Hepatitis C virus; protein: Nonstructural protein 5B; endpoint: IC50

ICn is the concentration giving n% inhibition.

compound,read by,strain,result
COc1ccc(CCC2(C3CCCC3)CC(=O)C(C(=O)Cc3cc(C)no3)C(=O)O2)c(OC)c1,,,10–50 µM
CC(=O)c1ccc(-c2ccc(C=C3SC(=S)N(c4ccc(C(=O)O)cc4)C3=O)o2)cc1,,,≤1 µM
CNC(=O)c1c(-c2ccc(F)cc2)oc2cc(N(C)S(C)(=O)=O)c(OCCn3cccn3)cc12,,,≤0.5 µM
O=C(O)CCN1C(=O)C(=Cc2ccc(-c3cccs3)o2)SC1=S,,,≤1 µM
CNC(=O)c1c(-c2ccc(F)cc2)oc2cc(-c3c(C)noc3C)c(OCCN3CCC(C#N)CC3)cc12,,,≤0.5 µM
COc1ccc2c(c1)C[C@@H]1C[C@]1(C(=O)N1C[C@H]3CC[C@@H](C1)CN(S(=O)(=O)C(C)C)C3)Cn1c-2c(C2CCCCC2)c2ccc(C(=O)NS(=O)(=O)N(C)C)cc21,nucleotide incorporation,1b,0.003 µM
CNC(=O)c1c(-c2ccc(F)cc2)oc2cc(C3CNC(=O)C3)c(OC)cc12,,,≤0.5 µM
O=C1NC(=S)SC1=Cc1ccc(-c2ccc(Cl)c(Cl)c2)o1,,,≤1 µM
COc1ccc2c(c1)C[C@@H]1C[C@]1(C(=O)N1C[C@H]3CC[C@@H](C1)CN(S(=O)(=O)C(C)C)C3)Cn1c-2c(C2CCCCC2)c2ccc(C(=O)NS(=O)(=O)C(C)C)cc21,nucleotide incorporation,1b,0.004 µM
COc1cc(OC)c(CCC2(C3CCCC3)CC(O)=C(Sc3nc4[nH]ccc4c(=O)[nH]3)C(=O)O2)cc1Cl,,,<1 µM
OCc1ccn2cc(-c3cn(Cc4cc(Cl)c(Cl)c(Cl)c4)nn3)nc2c1,nucleotide incorporation / radiometric,GT1b,32.4 µM
O=C(O)CN1C(=O)C(=Cc2ccc(-c3cccc(C(F)(F)F)c3)o2)SC1=S,,,≤1 µM
COc1ccc(CCC2(C3CCCC3)CC(=O)C(Oc3ccccc3)C(=O)O2)cc1OC,,,10–50 µM
COc1c(-c2ccc3cc(NS(C)(=O)=O)ccc3c2)cc(-n2ccc(=O)[nH]c2=O)cc1C(C)(C)C,nucleotide incorporation,GT 1b-BK,0.0031 µM
O=C1CC(=O)OC(CCc2ccc3c(c2)OCO3)(C2CCCC2)C1,,,10–50 µM
C[C@@]1(O)[C@H](O)[C@@H](COP(=O)([O-])OP(=O)([O-])OP(=O)([O-])O)O[C@H]1n1cnc2c(N)nc(N)nc21,nucleotide incorporation,WT gt 2a,2.1 µM
COc1ccc(Br)cc1-c1ccc(C=C2SC(=S)N(c3ccc(C(=O)O)cc3)C2=O)o1,,,≤1 µM
CNC(=O)c1c(-c2ccc(F)cc2)oc2cc(N(C)S(C)(=O)=O)c(OCc3nc(N)n[nH]3)cc12,,,≤0.5 µM
OCc1nnc(-c2ccc(N3CCC(Oc4cc(F)ccc4Br)CC3)nn2)o1,nucleotide incorporation / radiometric,1b,>80 µM
CNC(=O)c1c(-c2ccc(F)cc2)oc2cc(N(C)S(C)(=O)=O)c(OCc3nccn3Cc3ccccc3)cc12,,,≤0.5 µM
CCCCc1ccc(-c2ccc(C=C3SC(=S)N(c4ccc(C(=O)O)cc4)C3=O)o2)cc1,,,≤1 µM

3 of the rows above, restated:

{"compound": "C[C@@]1(O)[C@H](O)[C@@H](COP(=O)([O-])OP(=O)([O-])OP(=O)([O-])O)O[C@H]1n1cnc2c(N)nc(N)nc21", "read by": "nucleotide incorporation", "strain": "WT gt 2a", "result": "2.1 µM"}
{"compound": "OCc1nnc(-c2ccc(N3CCC(Oc4cc(F)ccc4Br)CC3)nn2)o1", "read by": "nucleotide incorporation / radiometric", "strain": "1b", "result": ">80 µM"}
{"compound": "CNC(=O)c1c(-c2ccc(F)cc2)oc2cc(N(C)S(C)(=O)=O)c(OCc3nccn3Cc3ccccc3)cc12", "result": "≤0.5 µM"}

Neighbouring rows are from separate reports. Blank or dashed fields: not listed here. Two numbers with a dash give a range or band.